{
  "source": "patent US20230109218A1",
  "about": "(BIOATLA, published 2023)",
  "binders": {"B1": {"name": "LC A032D/HC A106E conditionally active anti-HER2 antibody (antibody, V domains shown)", "VH": "[about 120 residues with changes not printed]", "VL": "DIQMTQSPSSLSASVGDRVTITCRASQDVNTDVAWYQQKPGKAPKLLIYSASFLYSGVPSRFSGSRSGTDFTLTISSLQPEDFATYYCQQHYTTPPTFGQGTKVEIK", "notes": "also called BA-130-03-07"}},
  "target": "T1, recombinant human HER2 antigen (human)",
  "T1 construct": "also called human HER2 protein",
  "test": "pH range ELISA on coated recombinant human HER2, antibody 100 ng/mL, pH 5.0-7.4; pH of 50% binding (binding at pH 6.0 = 100%)",
  "data": [
    {"binder": "B1", "values": [
      {"measurement": "pH inflection point", "result": 6.61, "unit": "pH"}
    ]}
  ]
}
